Measured values from several laboratories, pooled; numbers as filed in NIAID ChemDB.

All rows: tests on isolated targets; agent: HIV-1; protein: Reverse transcriptase; endpoint: IC50

a–b is a range or a potency band.

SMILES	strain	mutations	method	value
c1csc(-c2nnc3c4ccccc4c(N4CCc5ccccc5C4)nn23)c1	KER2008	-	RT activity / fluorescence	>100 µM
CCN1c2ncc(CCOc3ccc(C(=O)O)c4c3CCN(C(=O)OC)C4)cc2C(=O)N(C)c2cccnc21	-	RT-V106A	nucleotide incorporation / radiometric	>1 µM
Cc1nnc2c3ccccc3c(N3CCc4cc(O)c(O)cc4C3)nn12	98US_MSC5016	-	RT activity / fluorescence	1.82 µM
Cc1c(Sc2ccccc2)n(COCCOP(=O)(O)OP(=O)(O)OP(=O)(O)O)c(=O)[nH]c1=O	-	-	RT activity	>500 µM
COc1ccc2c(c1)CN(c1nn3c(C(C)C)nnc3c3ccccc13)CC2	IIIB	-	RT activity / fluorescence	0.24 µM
O=C1O[C@@H]2[C@@H](OC(=O)c3cc(O)c(O)c(O)c3-c3c1cc(O)c(O)c3O)[C@@H](O)O[C@@H]1COC(=O)c3cc(O)c(O)c(O)c3-c3c(O)c(O)c4oc(=O)c5c(c(O)c(O)c6oc(=O)c3c4c65)-c3c(cc(O)c(O)c3O)C(=O)O[C@@H]21	-	-	nucleotide incorporation	<20 µg/mL
COc1cccc(-c2nnc3c4ccccc4c(N4CCc5ccccc5C4)nn23)c1	KER2008	-	RT activity / fluorescence	67 µM
N#Cc1cc(Cl)cc(Oc2cc(OCc3ncc(-c4ccc(Cl)cc4)o3)ccc2Cl)c1	-	Y181C	scintillation proximity	0.17 µM
CCN1c2ncc(CCOc3ccc(C(=O)O)c4ccccc34)cc2C(=O)N(C)c2ccc(C)nc21	-	RT-V106A	nucleotide incorporation / radiometric	>1 µM
CCN1c2ncc(CCc3ccc(N(C)S(C)(=O)=O)cc3)cc2C(=O)N(C)c2ccc(Cl)nc21	-	RT-Y181C	nucleotide incorporation / radiometric	<1 µM
Oc1cc(O)c2c(c1)O[C@H](c1ccc(O)c(O)c1)[C@H](O)C2c1c(O)cc(O)c2c1O[C@H](c1ccc(O)c(O)c1)[C@H](O)C2c1c(O)cc(O)c2c1O[C@@]1(c3ccc(O)c(O)c3)Oc3cc(O)c4c(c3[C@@H]2[C@H]1O)O[C@H](c1ccc(O)c(O)c1)[C@H](O)C4	-	-	nucleotide incorporation	>20 µg/mL
c1ccc2c(c1)CN(c1nn3c(C4CC4)nnc3c3ccccc13)C2	IIIB	-	RT activity / fluorescence	>100 µM
CCN1c2ncc(CCOc3ccc(CC(=O)O)c4ccccc34)cc2C(=O)Nc2c(C)cc(Cl)nc21	-	RT-V106A	nucleotide incorporation / radiometric	0.1–1 µM
N#Cc1cc(Cl)cc(Oc2cc(OCc3nc(-c4ccccc4)no3)ccc2Cl)c1	-	Y181C	scintillation proximity	0.24 µM
Cc1nnc2c3ccccc3c(N3CCC4CCCCC4C3)nn12	IIIB	-	RT activity / fluorescence	3.5 µM
O=C(O[C@@H]1[C@@H](c2c(O)cc(O)c3c2O[C@H](c2ccc(O)c(O)c2)[C@H](OC(=O)c2cc(O)c(O)c(O)c2)C3)c2c(O)cc(O)cc2O[C@@H]1c1ccc(O)c(O)c1)c1cc(O)c(O)c(O)c1	-	-	nucleotide incorporation	>20 µg/mL
CCOCn1c(Sc2ccccc2)c(C)c(=O)[nH]c1=O	-	-	RT activity	4.1 µM
COc1ccc(-c2nnc(COc3ccc(Cl)c(Oc4cc(Cl)cc(C#N)c4)c3)o2)cc1	-	Y181C	scintillation proximity	0.085 µM
Cc1cc(C#N)ccc1Nc1nc(N)n(S(=O)(=O)c2cccc3cc(C#N)ccc23)n1	IIIB	-	luciferase / RT activity	14 µM
CCN1c2ncc(CCc3cccc(O)c3)cc2C(=O)N(C)c2cccnc21	WT	-	nucleotide incorporation / radiometric	<1 µM
Oc1cc(O)c2c(c1)O[C@H](c1ccc(O)c(O)c1)[C@H](O)[C@H]2c1c(O)cc(O)c2c1O[C@H](c1ccc(O)c(O)c1)[C@H](O)C2	-	-	nucleotide incorporation	>20 µg/mL
N#Cc1cc(Cl)cc(Oc2cc(OCc3nc(-c4ccc(Cl)cc4)no3)ccc2Cl)c1	-	Y181C	scintillation proximity	3.1 µM
Nc1ccn([C@H]2CC[C@@H](COP(=O)(O)OP(=O)(O)OP(=O)(O)O)O2)c(=O)n1	-	RT-Q151M	nucleotide incorporation / radiometric	2.3 µM
N#Cc1ccc(Nc2nc(N)n(S(=O)(=O)c3ccc4ccccc4c3)n2)cc1Cl	IIIB	-	luciferase / RT activity	1.6 µM
CCN1c2ncc(CCOc3ccc(C(=O)O)c4c3CCN(C(=O)N(C)C)C4)cc2C(=O)N(C)c2cccnc21	-	RT-K103N Y181C	nucleotide incorporation / radiometric	<0.1 µM
O=C(O[C@@H]1[C@H](c2c(O)cc(O)c3c2O[C@H](c2ccc(O)c(O)c2)[C@H](OC(=O)c2cc(O)c(O)c(O)c2)C3)c2c(O)cc(O)c([C@H]3c4c(O)cc(O)cc4O[C@H](c4ccc(O)c(O)c4)[C@@H]3OC(=O)c3cc(O)c(O)c(O)c3)c2O[C@@H]1c1ccc(O)c(O)c1)c1cc(O)c(O)c(O)c1	-	-	nucleotide incorporation	>20 µg/mL
Nc1ncnc2c1ncn2[C@H]1CC[C@@H](COP(=O)(O)OP(=O)(O)OP(=O)(O)O)O1	-	RT-Q151M	nucleotide incorporation / radiometric	11 µM
O=C(O[C@@H]1O[C@@H]2COC(=O)c3cc(O)c(O)c(O)c3-c3c(cc(O)c(O)c3O)C(=O)O[C@H]2[C@@H]2OC(=O)c3cc(O)c(O)c(O)c3-c3c(cc(O)c(O)c3O)C(=O)O[C@@H]12)c1cc(O)c(O)c(O)c1	-	-	nucleotide incorporation	>20 µg/mL
CCN1c2ncc(CCc3ccc4cc[nH]c4c3)cc2C(=O)N(C)c2cccnc21	WT	-	nucleotide incorporation / radiometric	<1 µM
O=C1OCC2OC(=O)c3cc(O)c(O)c(O)c3-c3c(O)c(O)c(O)c4c3C(=O)OC(C2OC(=O)c2cc(O)c(O)c(O)c2-c2c1cc(O)c(O)c2O)C1OC(=O)c2c-4c(O)c(O)c(O)c2[C@H]1C1(O)OC(CO)[C@@H](O)[C@H]1O	-	-	nucleotide incorporation	>20 µg/mL
CCN1c2ncc(CCc3ccnc(C(N)=O)c3)cc2C(=O)N(C)c2ccc(Cl)nc21	WT	-	nucleotide incorporation / radiometric	<1 µM

A second listing of 3 rows from above:

SMILES	strain	mutations	method	value
O=C(O[C@@H]1[C@H](c2c(O)cc(O)c3c2O[C@H](c2ccc(O)c(O)c2)[C@H](OC(=O)c2cc(O)c(O)c(O)c2)C3)c2c(O)cc(O)c([C@H]3c4c(O)cc(O)cc4O[C@H](c4ccc(O)c(O)c4)[C@@H]3OC(=O)c3cc(O)c(O)c(O)c3)c2O[C@@H]1c1ccc(O)c(O)c1)c1cc(O)c(O)c(O)c1	-	-	nucleotide incorporation	>20 µg/mL
CCOCn1c(Sc2ccccc2)c(C)c(=O)[nH]c1=O	-	-	RT activity	4.1 µM
CCN1c2ncc(CCOc3ccc(C(=O)O)c4c3CCN(C(=O)N(C)C)C4)cc2C(=O)N(C)c2cccnc21	-	RT-K103N Y181C	nucleotide incorporation / radiometric	<0.1 µM

An empty or dashed field is not shown. Rows are shuffled and stem from different studies. ICn: concentration for n% inhibition.